{"source": "ChEMBL document CHEMBL5390215", "about": "“SARS-CoV-2 papain-like protease (PLpro) inhibitory and antiviral activity of small molecule derivatives for drug leads” (Bioorg Med Chem Lett, 2023)", "molecular_target": "Replicase polyprotein 1ab (Severe acute respiratory syndrome-related coronavirus, UniProt P0C6X7)", "assay": "Inhibition of SARS-CoV-1 papain-like protease", "data": [{"compound": "CNCc1ccc(C)c(C(=O)N[C@H](C)c2cccc3ccccc23)c1", "values": [{"measurement": "IC50", "value": 360, "unit": "nM"}]}]}
